Measured data: PubChem BioAssay AID624099 (ICCB-Longwood, 2012)
The whole screen tested about 21,000 reagents; this is a part drawn at random. 497 of them (2.4%) were called active. 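Higher z means weaker E2 silencing; only reporter increases were scored, and knock-downs that hurt cell survival may mask genuine repressor factors.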 Entries without a mark were called inactive.

- Purpose: 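Knock-downs relieving repression by E2 of an HPV18 LCR luciferase reporter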 (primary screen)
- Cell system: human C33A cervical carcinoma cells (HPV-negative) stably expressing BPV1 E2 and an HPV18 LCR luciferase reporter
- Knock-down reagent: siRNA pool against human genes, 40 nM
- Time to read-out: 72 h
- Read-out: 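Per-well luciferase luminescence, z-scored on each plate against the plate mean and SD with control wells left out, then averaged across three replicate plates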
- Scale: mean z-score and z-score: higher = stronger reporter signal, weaker E2 silencing
- Active means: 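Mean z ≥ 2 together with z ≥ 2 in two or more of the three replicates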

{"target":"TGFBRAP1 (GeneID 9392)","PubChem SID":"SID134312031","mean z-score":0.36,"z-score, replicate A":0.39,"z-score, replicate B":0.51,"z-score, replicate C":0.19}
{"target":"HMBOX1 (GeneID 79618)","PubChem SID":"SID134318526","mean z-score":0.73,"z-score, replicate A":0.48,"z-score, replicate B":0.87,"z-score, replicate C":0.83}
{"target":"SIGLEC1 (GeneID 6614)","PubChem SID":"SID134321454","mean z-score":1.25,"z-score, replicate A":1.24,"z-score, replicate B":1.32,"z-score, replicate C":1.19}
{"target":"TFAP2D (GeneID 83741)","PubChem SID":"SID134319693","mean z-score":-0.36,"z-score, replicate A":-0.56,"z-score, replicate B":-0.29,"z-score, replicate C":-0.24}

Targets above whose gene name starts with T or t:
{"target":"TGFBRAP1 (GeneID 9392)","PubChem SID":"SID134312031","mean z-score":0.36,"z-score, replicate A":0.39,"z-score, replicate B":0.51,"z-score, replicate C":0.19}
{"target":"TFAP2D (GeneID 83741)","PubChem SID":"SID134319693","mean z-score":-0.36,"z-score, replicate A":-0.56,"z-score, replicate B":-0.29,"z-score, replicate C":-0.24}

The listing continues.
{"target":"OR4K13 (GeneID 390433)","PubChem SID":"SID134329875","mean z-score":-0.93,"z-score, replicate A":-1.2,"z-score, replicate B":-0.52,"z-score, replicate C":-1.07}
{"target":"CRP (GeneID 1401)","PubChem SID":"SID134323170","mean z-score":-0.45,"z-score, replicate A":-0.43,"z-score, replicate B":-0.65,"z-score, replicate C":-0.28}
{"target":"TMPRSS2 (GeneID 7113)","PubChem SID":"SID134311470","mean z-score":0.3,"z-score, replicate A":0.05,"z-score, replicate B":0.52,"z-score, replicate C":0.33}
{"target":"SCN8A (GeneID 6334)","PubChem SID":"SID134311826","mean z-score":-0.61,"z-score, replicate A":-0.44,"z-score, replicate B":-0.48,"z-score, replicate C":-0.92}
{"target":"PRLR (GeneID 5618)","PubChem SID":"SID134311721","mean z-score":-0.1,"z-score, replicate A":-0.18,"z-score, replicate B":0,"z-score, replicate C":-0.13}
{"target":"ATF7IP2 (GeneID 80063)","PubChem SID":"SID134318676","mean z-score":1.95,"z-score, replicate A":1.8,"z-score, replicate B":1.99,"z-score, replicate C":2.08}
{"target":"ZNF99 (GeneID 7652)","PubChem SID":"SID134325923","mean z-score":0.59,"z-score, replicate A":0.66,"z-score, replicate B":0.82,"z-score, replicate C":0.29}
{"target":"FURIN (GeneID 5045)","PubChem SID":"SID134311309","mean z-score":-0.07,"z-score, replicate A":-0.32,"z-score, replicate B":0.16,"z-score, replicate C":-0.04}
{"target":"SYNGAP1 (GeneID 8831)","PubChem SID":"SID134329971","mean z-score":-0.82,"z-score, replicate A":-0.54,"z-score, replicate B":-1.53,"z-score, replicate C":-0.38}
{"target":"OR52I1 (GeneID 390037)","PubChem SID":"SID134328325","mean z-score":0.12,"z-score, replicate A":0.36,"z-score, replicate B":0.25,"z-score, replicate C":-0.24}
